Pooled drug test results. Numbers come from NIAID ChemDB, via PubChem.

Common to all: whole-cell or culture tests; agent: HIV-1; measure: EC50

Conditions beyond the fields shown may differ between rows.

N#CC1=CN(COCc2ccccc2)S(=O)(=O)N=C1N ; cell line: MT-4 ; read by: cytopathic effect / MTT ; result: >400 µg/mL
CC(C)CN(C)Cc1ccc2c(c1)C[C@H](CN=C(N)N)[C@H]2NC(=O)C(=O)Nc1ccc(Cl)c(F)c1 ; cell line: Cf2Th-CD4/CCR5 ; strain or isolate: JR-FL ; read by: luminescence ; result: 11 µM
CC(C)(C)[Si](C)(C)CCOCN1C=C(C#N)C(N)=NS1(=O)=O ; cell line: MT-4 ; read by: cytopathic effect / MTT ; result: >400 µg/mL
C=C(C)[C@@H]1CC[C@]2(CCNC(C)(C)CN3CCN(C)CC3)CC[C@]3(C)[C@H](CC[C@@H]4[C@@]5(C)CC[C@H](OC(=O)CC(C)(C)C(=O)O)C(C)(C)[C@@H]5CC[C@]43C)[C@@H]12 ; cell line: MT-2 ; strain or isolate: IIIB ; read by: XTT ; result: 0.012 µM
CC(C)C1=C2[C@H]3CC[C@@H]4[C@@]5(C)CC[C@H](OC(=O)[C@H]6C[C@@H](C(=O)O)C6(C)C)C(C)(C)[C@@H]5CC[C@@]4(C)[C@]3(C)CC[C@@]2(CCNCC(C)(C)NC(=O)c2ccc(Cl)cc2OCCN2CCOCC2)CC1=O ; cell line: MT-2 ; strain or isolate: 92HT599 ; read by: p24 / ELISA ; result: <1 µM
CN(CCc1ccccc1)Cc1ccc2c(c1)C[C@H](CN=C(N)N)[C@H]2NC(=O)C(=O)Nc1ccc(Cl)c(F)c1 ; cell line: Cf2Th-CD4/CCR5 ; strain or isolate: AD8 ; read by: luminescence ; result: 7.1 µM
CC(=O)OC[C@H]1O[C@@H](Sc2nnc(-c3ccc(C)cc3)n2N)[C@H](OC(C)=O)[C@@H](OC(C)=O)[C@@H]1OC(C)=O ; cell line: MT-4 ; strain or isolate: NNRTI-resistant N119 ; mutations: RT-Y181C ; result: >100 µM
Nc1nc2c(ncn2[C@H]2O[C@@H](CO)[C@H](O)C2(F)F)c(=O)[nH]1 ; cell line: PBMC ; strain or isolate: LAI ; read by: RT activity ; result: >100 µM
CN1C=CCC(C(=O)OC[C@H]2O[C@@H](n3ccc(=O)[nH]c3=O)C[C@@H]2N=[N+]=[N-])=C1 ; cell line: PBMC ; strain or isolate: LAV ; read by: RT activity ; result: 1 µM
COc1ccc(-c2nnc(S(=O)(=O)[C@@H]3O[C@H](COC(C)=O)[C@@H](OC(C)=O)[C@H](OC(C)=O)[C@H]3OC(C)=O)n2N)cc1 ; cell line: MT-4 ; strain or isolate: NNRTI-resistant N119 ; mutations: RT-Y181C ; result: >100 µM
N#Cc1cc(Cl)cc(C(=O)c2cc(Cl)ccc2OCc2[nH]nc3ncccc23)c1 ; setting: 10% FBS ; cell line: MT-4 ; strain or isolate: HXB2 ; read by: cytopathic effect / MTT / absorbance ; result: 0.0037 µM
CCCOC(=O)N1c2ccc3ccccc3c2C=CC1C#N ; cell line: MOLT-3 ; strain or isolate: IIIB ; mutations: RT-P236L ; read by: syncytia ; result: 6.8 µM
CSc1nc2ccccc2c(=O)n1/N=C1\C(=O)N(CN2CCOCC2)c2ccc(Br)cc21 ; cell line: MT-4 ; strain or isolate: IIIB ; read by: cytopathic effect / MTT ; result: >10 µM
O=c1[nH]c(=O)n([C@@H]2O[C@@H](CO)[C@H](O)C2(F)F)cc1I ; cell line: PBMC ; strain or isolate: LAI ; read by: RT activity ; result: >100 µM
CC1=CC(=O)N(COCc2ccccc2)S(=O)(=O)N1COCc1ccccc1 ; cell line: MT-4 ; read by: cytopathic effect / MTT ; result: >400 µg/mL
COC(=O)c1cc2c(c(OC)c1-c1ccc(N(C)C)cc1)OCO2 ; cell line: C8166 ; strain or isolate: RF ; read by: p24 / ELISA ; result: 0.18 µg/mL
CSc1nc2ccccc2c(=O)n1/N=C1\C(=O)N(CN(C)C)c2ccc(Br)cc21 ; cell line: MT-4 ; strain or isolate: IIIB ; read by: cytopathic effect / MTT ; result: >16 µM
Nc1ccn([C@H]2O[C@@H](CO)[C@H](O)C2(F)F)c(=O)n1 ; cell line: PBMC ; strain or isolate: LAI ; read by: RT activity ; result: >100 µM
CCC(Cc1cccc(NS(=O)(=O)c2ccc(C(F)(F)F)cn2)c1)c1cc(O)c(C(c2ccccc2)C2CC2)c(=O)o1 ; cell line: MT-4 ; strain or isolate: IIIB ; read by: cytopathic effect / MTT ; result: 23.6 µM
C=C(C=O)[C@@H]1CC[C@@]2(C)C1C1CCC3[C@@]4(C)CC[C@H](O)C(C)(C)C4CC[C@@]3(C)[C@]1(C)C[C@@H]2O ; cell line: CEM.NKR-CCR5 ; read by: luciferase / entry ; result: 1 µM
C#CCOCN1C(=O)C=C(C)N(COCC#C)S1(=O)=O ; cell line: MT-4 ; read by: cytopathic effect / MTT ; result: >400 µg/mL
Cc1cc(C#CCCO)cc(C)c1Oc1ccnc(Nc2ccc(C#N)cc2)n1 ; cell line: MT-4 ; strain or isolate: IIIB ; mutations: Y188L ; read by: MTT ; result: 0.219 µM
CC(C)C1=C2[C@H]3CC[C@@H]4[C@@]5(C)CC[C@H](OC(=O)[C@H]6C[C@@H](C(=O)O)C6(C)C)C(C)(C)[C@@H]5CC[C@@]4(C)[C@]3(C)CC[C@@]2(CC(=O)NC[C@H]2CCCNC2)CC1=O ; cell line: MT-2 ; strain or isolate: 92HT599 ; read by: p24 / ELISA ; result: <1 µM
Nc1nc(=O)n([C@@H]2O[C@@H](CO)[C@H](O)C2(F)F)cc1F ; cell line: PBMC ; strain or isolate: LAI ; read by: RT activity ; result: >100 µM
CCOC(=O)N1c2ccc3ccccc3c2C=CC1C#N ; cell line: MOLT-3 ; strain or isolate: IIIB ; read by: syncytia ; result: 18.8 µM
CC(C)C1=C2[C@H]3CC[C@@H]4[C@@]5(C)CC[C@H](OC(=O)[C@H]6C[C@@H](C(=O)O)C6(C)C)C(C)(C)[C@@H]5CC[C@@]4(C)[C@]3(C)CC[C@@]2(CCNC(=O)Cc2ccc(Cl)cc2)CC1=O ; cell line: MT-2 ; strain or isolate: 92HT599 ; read by: p24 / ELISA ; result: <1 µM
CSc1nc2ccccc2c(=O)n1/N=C1\C(=O)Nc2ccc(Cl)cc21 ; cell line: MT-4 ; strain or isolate: IIIB ; read by: cytopathic effect / MTT ; result: >40 µM
Nc1nc(=O)n([C@H]2O[C@@H](CO)[C@H](O)C2(F)F)cc1Br ; cell line: PBMC ; strain or isolate: LAI ; read by: RT activity ; result: >100 µM
C#CCOCN1C=CC(=O)N(COCC#C)S1(=O)=O ; cell line: MT-4 ; read by: cytopathic effect / MTT ; result: >400 µg/mL
Cc1ccc(-c2nnc3sc(CN)nn23)cc1 ; cell line: MT-4 ; strain or isolate: IIIB ; result: >100 µM
CSc1nc2ccccc2c(=O)n1/N=C1\C(=O)Nc2ccc(Br)cc21 ; cell line: MT-4 ; strain or isolate: IIIB ; read by: cytopathic effect / MTT ; result: >8 µM
COc1ccc(-c2nnc3sc(C(CC(C)C)N4C(=O)c5ccccc5C4=O)nn23)cc1 ; cell line: MT-4 ; strain or isolate: NNRTI-resistant N119 ; mutations: RT-Y181C ; result: >100 µM
Nc1nc(=O)n([C@@H]2O[C@@H](CO)[C@H](O)C2(F)F)cc1Cl ; cell line: PBMC ; strain or isolate: LAI ; read by: RT activity ; result: >100 µM
O=C(NCc1ccc(F)cc1F)c1cn2c(c(O)c1=O)C(=O)N1C3CCC(C3)OC1C2 ; setting: 100% human serum ; cell line: MT-4 ; strain or isolate: NL4-3 ; read by: GFP ; result: 0.209 µM
CC(C)C1=C2[C@H]3CC[C@@H]4[C@@]5(C)CC[C@H](OC(=O)[C@H]6C[C@@H](C(=O)O)C6(C)C)C(C)(C)[C@@H]5CC[C@@]4(C)[C@]3(C)CC[C@@]2(CCNC[C@H]2CCCNC2)CC1=O ; cell line: MT-2 ; strain or isolate: 92HT599 ; read by: p24 / ELISA ; result: <1 µM
Cc1cn([C@@H]2O[C@@H](CO)[C@H](O)C2(F)F)c(=O)[nH]c1=O ; cell line: PBMC ; strain or isolate: LAI ; read by: RT activity ; result: >100 µM
[2H]C(CNCC[C@@]12CC[C@]3(C)[C@H](CC[C@@H]4[C@@]5(C)CC[C@H](OC(=O)[C@H]6C[C@@H](C(=O)O)C6(C)C)C(C)(C)[C@@H]5CC[C@]43C)C1=C(C(C)C)C(=O)C2)(NC(=O)c1ccc(Cl)cc1)C(C)O ; cell line: MT-2 ; strain or isolate: 92HT599 ; read by: p24 / ELISA ; result: <1 µM
CSc1nc2ccccc2c(=O)n1/N=C1\C(=O)N(CN2CCCCC2)c2ccc(Cl)cc21 ; cell line: MT-4 ; strain or isolate: IIIB ; read by: cytopathic effect / MTT ; result: >10 µM
CC(C)C1=C2[C@H]3CC[C@@H]4[C@@]5(C)CC[C@H](OC(=O)[C@H]6C[C@@H](C(=O)O)C6(C)C)C(C)(C)[C@@H]5CC[C@@]4(C)[C@]3(C)CC[C@@]2(CCNCC(C)(C)NC(=O)c2ccc3ccccc3n2)CC1=O ; cell line: MT-2 ; strain or isolate: 92HT599 ; read by: p24 / ELISA ; result: <1 µM
CSc1nc2ccccc2c(=O)n1/N=C1\C(=O)N(CN2CCCCC2)c2ccccc21 ; cell line: MT-4 ; strain or isolate: IIIB ; read by: cytopathic effect / MTT ; result: >9 µM

Again, the opening 5 rows:

compound,setting,cell line,strain or isolate,mutations,read by,result
N#CC1=CN(COCc2ccccc2)S(=O)(=O)N=C1N,-,MT-4,-,-,cytopathic effect / MTT,>400 µg/mL
CC(C)CN(C)Cc1ccc2c(c1)C[C@H](CN=C(N)N)[C@H]2NC(=O)C(=O)Nc1ccc(Cl)c(F)c1,-,Cf2Th-CD4/CCR5,JR-FL,-,luminescence,11 µM
CC(C)(C)[Si](C)(C)CCOCN1C=C(C#N)C(N)=NS1(=O)=O,-,MT-4,-,-,cytopathic effect / MTT,>400 µg/mL
C=C(C)[C@@H]1CC[C@]2(CCNC(C)(C)CN3CCN(C)CC3)CC[C@]3(C)[C@H](CC[C@@H]4[C@@]5(C)CC[C@H](OC(=O)CC(C)(C)C(=O)O)C(C)(C)[C@@H]5CC[C@]43C)[C@@H]12,-,MT-2,IIIB,-,XTT,0.012 µM
CC(C)C1=C2[C@H]3CC[C@@H]4[C@@]5(C)CC[C@H](OC(=O)[C@H]6C[C@@H](C(=O)O)C6(C)C)C(C)(C)[C@@H]5CC[C@@]4(C)[C@]3(C)CC[C@@]2(CCNCC(C)(C)NC(=O)c2ccc(Cl)cc2OCCN2CCOCC2)CC1=O,-,MT-2,92HT599,-,p24 / ELISA,<1 µM

ECn is the concentration giving n% inhibition of infection, replication or growth. An empty or dashed field is not shown.